From patent publication US20040258687A1

By UniProt entry, the sequences of proteins in these tests, tags left out. Residues count along the entry.
UniProt P25092, 24-1073: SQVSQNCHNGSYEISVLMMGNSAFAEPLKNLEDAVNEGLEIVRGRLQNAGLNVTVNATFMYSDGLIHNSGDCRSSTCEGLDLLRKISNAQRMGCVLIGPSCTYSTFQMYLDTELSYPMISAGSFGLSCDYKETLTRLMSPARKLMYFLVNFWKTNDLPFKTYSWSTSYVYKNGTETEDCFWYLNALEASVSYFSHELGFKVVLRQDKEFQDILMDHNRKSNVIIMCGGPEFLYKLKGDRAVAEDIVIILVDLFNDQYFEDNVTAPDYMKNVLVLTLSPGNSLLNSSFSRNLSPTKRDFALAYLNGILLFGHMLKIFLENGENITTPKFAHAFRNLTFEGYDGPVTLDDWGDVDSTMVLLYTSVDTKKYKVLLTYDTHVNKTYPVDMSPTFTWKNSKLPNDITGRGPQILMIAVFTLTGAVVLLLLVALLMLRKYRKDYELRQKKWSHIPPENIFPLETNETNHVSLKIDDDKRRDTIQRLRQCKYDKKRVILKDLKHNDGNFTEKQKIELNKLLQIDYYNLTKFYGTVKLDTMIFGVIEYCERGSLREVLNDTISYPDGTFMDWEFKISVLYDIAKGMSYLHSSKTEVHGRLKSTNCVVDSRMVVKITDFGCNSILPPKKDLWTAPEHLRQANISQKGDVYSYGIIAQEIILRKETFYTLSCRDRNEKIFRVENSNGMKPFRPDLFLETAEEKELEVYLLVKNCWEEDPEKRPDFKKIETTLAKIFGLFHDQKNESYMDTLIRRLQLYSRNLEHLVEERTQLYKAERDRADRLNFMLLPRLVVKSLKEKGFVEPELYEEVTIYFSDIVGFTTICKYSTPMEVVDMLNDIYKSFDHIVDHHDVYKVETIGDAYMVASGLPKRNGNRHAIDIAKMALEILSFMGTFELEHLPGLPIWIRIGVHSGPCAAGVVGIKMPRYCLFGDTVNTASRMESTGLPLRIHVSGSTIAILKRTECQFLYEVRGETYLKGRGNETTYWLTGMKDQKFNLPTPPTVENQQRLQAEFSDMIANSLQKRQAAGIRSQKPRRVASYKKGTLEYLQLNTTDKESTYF

Target: guanylyl cyclase C (GC-C), as expressed on T84 human colon carcinoma cells (human) (UniProt P25092)
Assay: cell-based or functional assay

“E. coli heat-stable enterotoxin (ST) (peptide)” showed an IC50 for ST as an anticancer agent in vitro of 14 nM.
